# Genome-wide point mutation profile of HIV-1: Gag

Protein: Gag of HIV-1 NL4-3, numbered from its first residue. Gag is numbered as the whole polyprotein.
Effects on overlapping genes or RNA elements are not listed.

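Seven fragments of pNL4-3 were mutated by error-prone PCR, and each virus pool was passaged in CEM T cells. Sequencing gave the RC index: frequency after two rounds over frequency in the input plasmid.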

RC index: lower means poorer replication; rough cut-offs are 0.1 (lethal) and 0.2 (tolerated).
A change reads original residue, position, new residue.
Input reads are the counts in the plasmid library.

change | base | region | input reads | replication capacity index
D96V | A1076T | MA | 186 | 0.0346
T97P | A1078C | MA | 74 | 0.0869
T97S | A1078T | MA | 159 | 0.0202
T97S | C1079G | MA | 169 | 0.0761
K98Q | A1081C | MA | 30 | 0.857
K98E | A1081G | MA | 367 | 0.0613
K98T | A1082C | MA | 143 | 0.0899
E99K | G1084A | MA | 93 | 0.622
E99G | A1085G | MA | 279 | 0.0576
E99V | A1085T | MA | 123 | 0.0523
A100P | G1087C | MA | 64 | 0.0502
L101I | T1090A | MA | 350 | 0.101
L101F | A1092T | MA | 363 | 0.0443
D102G | A1094G | MA | 166 | 0.0194
D102V | A1094T | MA | 344 | 0.0654
K103T | A1097C | MA | 143 | 0.0225
K103M | A1097T | MA | 552 | 0.0349
I104V | A1099G | MA | 164 | 0.0196
I104L | A1099T | MA | 212 | 0.0303
I104K | T1100A | MA | 582 | 0.0166
I104T | T1100C | MA | 243 | 0.0926
E105K | G1102A | MA | 248 | 0.363
E105V | A1103T | MA | 195 | 0.940
E106G | A1106G | MA | 408 | 0.0788
E106V | A1106T | MA | 351 | 0.0458
E106D | A1107T | MA | 475 | 0.0609
E107K | G1108A | MA | 293 | 0.296
E107V | A1109T | MA | 228 | 0.0423
E107D | G1110C | MA | 62 | 0.207
Q108E | C1111G | MA | 141 | 0.0228
Q108L | A1112T | MA | 566 | 0.0454
Q108H | A1113C | MA | 76 | 0.0846
Q108H | A1113T | MA | 446 | 0.0432
N109D | A1114G | MA | 203 | 0.0158
N109Y | A1114T | MA | 299 | 0.0108
N109T | A1115C | MA | 40 | 0.0804
N109I | A1115T | MA | 195 | 0.0330
K110E | A1117G | MA | 219 | 0.0440
K110T | A1118C | MA | 67 | 0.144
K110N | A1119C | MA | 170 | 0.0189
K110N | A1119T | MA | 375 | 0.0429
S111N | G1121A | MA | 516 | 0.278
S111T | G1121C | MA | 278 | 0.0765
S111I | G1121T | MA | 257 | 0.0828
S111R | T1122A | MA | 488 | 0.104
K112E | A1123G | MA | 454 | 0.0937
K112M | A1124T | MA | 803 | 0.0431
K113E | A1126G | MA | 418 | 0.0764
K113T | A1127C | MA | 133 | 0.500
K113I | A1127T | MA | 695 | 0.0306
K113N | A1128C | MA | 200 | 0.106
K113N | A1128T | MA | 265 | 0.0401
K114Q | A1129C | MA | 274 | 0.00971
A115T | G1132A | MA | 499 | 0.180
A115S | G1132T | MA | 39 | 0.0563
Q116K | C1135A | MA | 53 | 0.0414
Q116E | C1135G | MA | 86 | 0.0766
Q116H | G1137C | MA | 38 | 0.231
Q116H | G1137T | MA | 204 | 0.0646
Q117E | C1138G | MA | 66 | 0.0333
A118P | G1141C | MA | 45 | 0.0488
A118G | C1142G | MA | 48 | 0.0458
A119T | G1144A | MA | 462 | 0.295
A119S | G1144T | MA | 140 | 0.125
A120S | G1147T | MA | 156 | 0.394
A120D | C1148A | MA | 128 | 0.103
A120V | C1148T | MA | 395 | 0.0500
D121A | A1151C | MA | 48 | 0.0915
D121V | A1151T | MA | 311 | 0.0282
D121E | C1152G | MA | 142 | 0.0309
T122A | A1153G | MA | 257 | 0.0427
T122R | C1154G | MA | 41 | 0.0536
T122I | C1154T | MA | 300 | 0.139
N124D | A1159G | MA | 221 | 0.0298
N124Y | A1159T | MA | 406 | 0.0270
N124S | A1160G | MA | 115 | 0.0764
N124I | A1160T | MA | 222 | 0.0198
N124K | C1161A | MA | 102 | 0.0215
N124K | C1161G | MA | 91 | 0.0241
N125I | A1163T | MA | 358 | 0.0552
N125K | C1164G | MA | 116 | 0.0568
S126T | G1166C | MA | 84 | 0.0261
S126R | C1167G | MA | 32 | 0.0686
Q127K | C1168A | MA | 144 | 0.153
Q127L | A1169T | MA | 187 | 0.0705
V128D | T1172A | MA | 232 | 0.0189
S129C | A1174T | MA | 305 | 0.0216
S129T | G1175C | MA | 104 | 0.0634
S129I | G1175T | MA | 95 | 0.0925
S129R | C1176A | MA | 103 | 0.0213

7 of these entries, quoted again:

* K98T (base A1082C, region MA, input reads 143) -> 0.0899
* K113E (base A1126G, region MA, input reads 418) -> 0.0764
* S129I (base G1175T, region MA, input reads 95) -> 0.0925
* A115S (base G1132T, region MA, input reads 39) -> 0.0563
* E107D (base G1110C, region MA, input reads 62) -> 0.207
* K113T (base A1127C, region MA, input reads 133) -> 0.500
* Q127L (base A1169T, region MA, input reads 187) -> 0.0705

Since each clone held several changes (about five per kb), neutral changes can read low.
An index over 1, which the authors read as above wild type, was rare (1.9% of all changes in the genome).
Base changes are numbered along pNL4-3.

Values reported by Al-Mawsawi et al. 2014 (doi:10.1186/s12977-014-0124-6).